Test results reported in publication PMC11988775, “Glycyl-tRNA Synthetase as a Target for Antiviral Drug Screening Against Influenza Virus” (International Journal of Molecular Sciences, 2025).

System: influenza viruses (A/PuertoRico/8/34 (H1N1), A/Guangdong-MaonanSWL1536/2019 (H1N1) pdm09, A/Victoria/4897/2022(H1N1), B/Colorado/06/2017(BV))
Assay type: cell-based, Influenza A and B virus

Structure (SMILES) | viral replication and spread (virus titer)
O=c1cc(-c2ccc(O)cc2)oc2cc(O)c(O)c(O)c12 [Scutellarein] | consistently inhibited viral replication and spread across all tested strains
Oc1cc2c3c(c1)c1cc4c(cc1c[n+]3CC2)OCO4 [Lycobetaine] | consistently inhibited viral replication and spread across all tested strains
